Anti-infective test results gathered from many reports (values: NIAID ChemDB through PubChem).

Common to all: whole-cell or culture tests; agent: Herpes simplex virus 2; method: cytopathic effect; read-out: EC50

Conditions beyond the fields shown may differ between rows. Blank or dashed fields: not listed here. ECn is the concentration giving n% inhibition of infection, replication or growth.

compound,cell line,strain or isolate,result
Nc1nc2c(ncn2[C@H]2C[C@@H](O)[C@H](CO)O2)c(=O)[nH]1,VERO B,G,>1000 µM
NC(=O)c1cn([C@H]2C[C@@H](O)[C@@H](CO)O2)c2ncnc(N)c12,PRK,G,70 µg/mL
Nc1nccc2c1ncn2[C@@H]1C[C@H](CO)[C@@H](O)[C@H]1O,PRK,G,200 µg/mL
Nc1nccc2c1ncn2[C@@H]1C[C@H](CO)[C@@H](O)[C@H]1O,PRK,-,>400 µg/mL
Nc1nccc2c1ncn2[C@@H]1C[C@H](CO)[C@@H](O)[C@H]1O,PRK,G,400 µg/mL
Cc1cn([C@H]2C[C@@H](O)[C@H](CO)O2)c(=O)[nH]c1=O,VERO B,G,>1000 µM
COC(=O)OP(=O)(CO[C@H](CO)Cn1cnc(N)nc1=O)OC(=O)OC,-,Lyons strain,0.068 µg/mL
Nc1ncnc2c1ccn2[C@@H]1O[C@H](CO)[C@H](O)[C@H]1O,PRK,G,0.07 µg/mL
Nc1ncnc2c1ncn2CCOCP(=O)(O)O,-,G,26 µM
O=c1[nH]cnc2c1ncn2CC(CO)OCP(=O)(O)O,Primary rabbit kidney cells,3 strains,>400 µg/mL
Nc1ncnc2c1c(Br)cn2[C@@H]1O[C@H](CO)[C@@H](O)[C@H]1O,PRK/E6SM,G,0.2 µg/mL
C[C@H](Cn1cnc2c(N)ncnc21)OCP(=O)(O)O,-,G,≥350 µM
Nc1nc(=O)c2ncn(CCOCP(=O)(O)O)c2c(=O)[nH]1,HepG2.2.15,-,1.4 µM
Nc1nc2c(ncn2[C@H]2C=C[C@@H](CO)C2)c(=O)[nH]1,E6SM,G,1.3 µg/mL
O=c1ccn([C@@H]2O[C@@H](CO)[C@H](O)[C@H]2O)c(=O)[nH]1,VERO B,G,>1000 µM
CC1=C(C)C(CO)(CO)C[C@H]1n1ccc(N)nc1=O,VERO,-,>100 µg/mL
Nc1ncnc2c1c(Br)cn2[C@@H]1O[C@H](CO)[C@@H](O)[C@H]1O,PRK,G,≥0.4 µg/mL
Nc1ccn(C[C@@H](CO)OCP(=O)(O)O)c(=O)n1,HEL,G,0.11 µg/mL
C#Cc1c(C(N)=O)ncn1[C@@H]1O[C@H](CO)[C@@H](O)[C@H]1O,PRK,G,>400 µg/mL
C[C@@H]1CC[C@H]2[C@@H](C)C(=O)O[C@@H]3OC4(C)CC[C@@H]1[C@]32OO4,E6SM,G,240 µg/mL
COc1ccc2c(c1)COP(=O)(OC[C@@H]1C=C[C@H](n3cnc4c(NC5CC5)nc(N)nc43)C1)O2,E6SM,G,7.2 µg/mL
NC(=O)c1ncn([C@@H]2O[C@H](CO)[C@@H](O)[C@H]2O)c1C#CCO,PRK,G,>400 µg/mL
Nc1ncnc2c1ncn2C[C@H](O)CO,PRK,-,>400 µg/mL
NC(=O)c1cn([C@@H]2O[C@H](CO)[C@@H](O)[C@H]2O)c2ncnc(N)c12,PRK,G,0.07 µg/mL
CC1=C(C)[C@](CO)(c2ccccc2)C[C@H]1n1ccc(N)nc1=O,VERO,-,>100 µg/mL
O=c1ccn(CC(CO)OCP(=O)(O)O)c(=O)[nH]1,Primary rabbit kidney cells,3 strains,>400 µg/mL
Nc1cc(OC[C@H](CO)OCP(=O)(O)O)nc(N)n1,-,G,51 µM
Cc1cccc2c1OP(=O)(OC[C@@H]1C=C[C@H](n3cnc4c(NC5CC5)nc(N)nc43)C1)OC2,E6SM,G,5.6 µg/mL
Nc1nc(N)c2ncn(CCOCP(=O)(O)O)c2n1,Primary rabbit kidney cells,3 strains,0.7 µg/mL
Nc1nc2c(ncn2[C@@H]2O[C@@H](CO)[C@H](O)[C@H]2O)c(=O)[nH]1,VERO B,G,>1000 µM
Nc1nc2c(ncn2COC(CO)CO)c(=O)[nH]1,HEL,ACV-resistant,0.37 µg/mL
NC(=O)c1csc([C@@H]2O[C@H](CO)[C@@H](O)[C@H]2O)n1,HeLa,MS,4 µg/mL
Nc1nc2c(ncn2COCCOP2(=O)OCc3ccccc3O2)c(=O)[nH]1,E6SM,G,0.26 µg/mL
O=c1[nH]cnc2c1ncn2CCOCP(=O)(O)O,Primary rabbit kidney cells,3 strains,>400 µg/mL
Nc1nc(NC2CC2)c2ncn([C@H]3C=C[C@@H](COP4(=O)OCc5cc(Cl)ccc5O4)C3)c2n1,E6SM,G,24 µg/mL
NC(=O)c1ncn([C@@H]2O[C@H](CO)[C@@H](O)[C@H]2O)n1,PRK,G,>400 µg/mL

3 of the rows above, restated:

compound	cell line	strain or isolate	result
Nc1nccc2c1ncn2[C@@H]1C[C@H](CO)[C@@H](O)[C@H]1O	PRK	G	400 µg/mL
O=c1ccn([C@@H]2O[C@@H](CO)[C@H](O)[C@H]2O)c(=O)[nH]1	VERO B	G	>1000 µM
Nc1nc2c(ncn2[C@H]2C[C@@H](O)[C@H](CO)O2)c(=O)[nH]1	VERO B	G	>1000 µM